A mixed list of measured activities; the numbers were collected in NIAID ChemDB.

Common to all: whole-cell or culture tests; agent: HIV-1; read by: MTT; read-out: EC50

ECn: concentration that inhibits the pathogen or its effect by n%. Conditions beyond the fields shown may differ between rows. Blank or dashed fields: not listed here. Two numbers with a dash give a range or band.

| structure | cells | changes | strain or isolate | result |
|---|---|---|---|---|
| O=C1C=C[C@@H](n2ccc(=O)n(C(=O)c3ccccc3)c2=O)CC1 | MT-4 | - | NL4-3 | >0.5 µg/mL |
| CCOC(=O)c1nnsc1NCc1ccccc1N | MT-4 | - | IIIB | >290 µM |
| Cc1cc(/C=C/C#N)cc(C)c1Oc1nc(NC2CCN(Cc3ccc(C#N)cc3)CC2)nc2ccsc12 | MT-4 | NNRTI-resistant (RT E138K) | IIIB | 0.0296 µM |
| COc1ccccc1NC(=O)Nc1nc(NCCc2ccc(OC)c(OC)c2)nc(Oc2cc(=O)oc3ccccc23)n1 | MT-4 | - | IIIB | >25.48 µg/mL |
| CCOP(=O)(/C=C/[C@]1(C(F)(F)F)CC[C@H](n2cnc3c(Cl)nc(N)nc32)C1)OCC | MT-4 | - | - | 49.5 µM |
| CCOC(=O)CNc1nc(NC(=O)Nc2cccc(Cl)c2)nc(Oc2cc(=O)oc3ccccc23)n1 | MT-4 | - | IIIB | >125 µg/mL |
| Cc1cc(/C=C/C#N)cc(C)c1Oc1nc(NC2CCN(Cc3cccc(C(N)=O)c3)CC2)nc2ccsc12 | MT-4 | NNRTI-resistant (RT K103N) | IIIB | 0.00297 µM |
| O=C1CC2CCC1C1C(=O)N(CCCN3CCN(c4ncccn4)CC3)C(=O)C21 | MT-4 | - | - | >100 µM |
| Cc1ccc(C(C)C)c(O)c1 | MT-4 | - | IIIB | >1000 µg/mL |
| Cc1cc(/C=C/C#N)cc(C)c1Nc1ccnc(Nc2ccc(C#N)cc2)n1 | MT-4 | - | IIIB | 0.0013 µM |
| COc1ccccc1N1CCN(CCCN2C(=O)C3C4CCC(C(=O)C4)C3C2=O)CC1 | MT-4 | - | - | >100 µM |
| CSC(=Nc1ccc(Cl)cc1)Nn1c(C)nc2ccccc2c1=O | MT-4 | - | IIIB | 1.93 µg/mL |
| Cc1ccc2c(c1)[C@@H](N1CCCC1=O)C[C@@H](c1cccc([N+](=O)[O-])c1)N2 | MT-2 | - | NL4-3 | >50 µM |
| CCN=c1scc(-c2cc(OC)ccc2OC)n1/N=C(\C)c1ccco1 | MT-4 | - | IIIB | >60 µg/mL |
| Cc1cc(C)c(Nc2nc(NC3CCN(Cc4ccc(F)cc4)CC3)nc3nc[nH]c23)c(C)c1 | MT-4 | - | IIIB | >13.97 µM |
| O=[N+]([O-])c1cccc(-c2ccc3ccccc3n2)c1 | MT-2 | - | NL4-3 | 63.67 µM |
| O=C1C=CN([C@H]2C=C[C@H](O)CC2)C(=O)C1C(=O)c1ccccc1 | MT-4 | - | NL4-3 | >25 µg/mL |
| CC1(C)CC(=O)C2=C(O1)C1=C[C@@H](C(C)(C)O)O[C@H]1[C@@H](O)C2 | HeLa + C8166 | - | - | >100 µM |
| CCN(CC)CC(O)CN1C(=O)C2C3CCC(C(=O)C3)C2C1=O | MT-4 | - | - | >100 µM |
| CCOCn1c(Sc2ccccc2)cc(=O)[nH]c1=O | MT-4 | - | NL4-3 | 0.025 µg/mL |
| Cc1cn([C@H]2C[C@H](N=[N+]=[N-])[C@@H](CO)O2)c(=O)[nH]c1=O | MT-4 | - | - | 0.023 µM |
| Cc1cc(/C=C/C#N)cc(C)c1Oc1nc(NC2CCN(Cc3ccc(Br)cc3)CC2)nc2ccsc12 | MT-4 | - | RES056 | 0.154 µM |
| Nc1cccc([C@@H]2C[C@H](N3CCCC3=O)c3cc(I)ccc3N2)c1 | MT-2 | - | NL4-3 | >50 µM |
| CCOC(=O)CNc1nc(Nc2cccc(C)c2)nc(Oc2cc(=O)oc3ccccc23)n1 | MT-4 | - | IIIB | >65.28 µg/mL |
| Cc1cc(C)c(Nc2nc(NC3CCN(Cc4ccccc4C#N)CC3)nc3nc[nH]c23)c(C)c1 | MT-4 | - | RES056 | >125 µM |
| O=c1ccn([C@@H]2C=C[C@H](O)CC2)c(=O)[nH]1 | MT-4 | - | NL4-3 | >25 µg/mL |
| O=C(CN1CCCC1)Nc1ccc(Cc2ccc(NC(=O)CN3CCCC3)cc2)cc1 | C8166 | - | IIIB | 17.05 µg/mL |
| CSC(=Nc1cccc(Cl)c1)Nn1c(C)nc2ccccc2c1=O | MT-4 | - | IIIB | 1.17 µg/mL |
| COc1cc2c(c(OC)c1)[C@@H](N1CCCC1=O)C[C@@H](c1cccc(N)c1)N2 | MT-2 | - | NL4-3 | 116 µM |
| Cc1ccccc1N1CCN(CCCN2C(=O)C3C4CCC(C(=O)C4)C3C2=O)CC1 | MT-4 | - | - | >100 µM |
| Nc1ccn([C@@H]2CC[C@H](CO)O2)c(=O)n1 | MT-4 | - | RF | 0.094–2.84 µM |
| CC(C)OC(=O)OCOP(=O)(CO[C@H](C)Cn1cnc2c(N)ncnc21)OCOC(=O)OC(C)C | MT-4 | - | IIIB | 0.04 µg/mL |
| Nc1nc(=O)n([C@@H]2CC[C@H](CO)O2)cc1F | MT-4 | - | RF | 1.31 µM |
| CN(C)CC(O)CN1C(=O)C2C3CCC(C(=O)C3)C2C1=O | MT-4 | - | - | >100 µM |
| O=C1C=C[C@H](n2cnc3c(Cl)ncnc32)CC1 | MT-4 | - | NL4-3 | >13.5 µg/mL |
| CCc1ccccc1N=C(Nn1c(C)nc2ccccc2c1=O)SC | MT-4 | - | IIIB | 34.45 µg/mL |
| Cc1ccc2c(c1)[C@@H](N1CCCC1=O)C[C@@H](c1cccc(N)c1)N2 | MT-2 | - | NL4-3 | >50 µM |
| Nc1nc(=O)n([C@H]2CC[C@@H](CO)O2)cc1F | MT-4 | - | RF | 0.175 µM |
| COc1cc(OC)c2ccc(-c3cccc([N+](=O)[O-])c3)nc2c1 | MT-2 | - | NL4-3 | 18.48 µM |
| CC(C)=CC[C@]12O[C@H]1[C@@H](O)CC1=C2OC(C)(C)CC1=O | HeLa + C8166 | - | - | >100 µM |
| CSC(=Nc1ccc(Br)cc1)Nn1c(C)nc2ccccc2c1=O | MT-4 | - | IIIB | 2.66 µg/mL |
| Nc1ccn([C@H]2CC[C@@H](CO)O2)c(=O)n1 | MT-4 | Y188H | - | 0.01 µM |
| CCOC(=O)CNc1nc(NC(=O)Nc2ccccc2C)nc(Oc2cc(=O)oc3ccccc23)n1 | MT-4 | - | IIIB | >75.53 µg/mL |
| COc1ccc2c(c1)[C@@H](N1CCCC1=O)C[C@@H](c1cccc(N)c1)N2 | MT-2 | - | NL4-3 | 69.07 µM |
| Cc1cc(/C=C/C#N)cc(C)c1Oc1nc(NC2CCN(Cc3ccccc3F)CC2)nc2ccsc12 | MT-4 | - | RES056 | 0.177 µM |
| CCOC(=O)CNc1nc(Nc2ccc3ccccc3c2)nc(Oc2cc(=O)oc3ccccc23)n1 | MT-4 | - | IIIB | >46.53 µg/mL |
| COc1cc2c(c(OC)c1)[C@@H](N1CCCC1=O)C[C@@H](c1cccc([N+](=O)[O-])c1)N2 | MT-2 | - | NL4-3 | >50 µM |
| Cc1cc(C)c(Nc2nc(NC3CCN(Cc4ccc([N+](=O)[O-])cc4)CC3)nc3nc[nH]c23)c(C)c1 | MT-4 | - | IIIB | >21.8 µM |
| Nc1nc(=O)n([C@H]2CC[C@H](CO)O2)cc1F | MT-4 | - | RF | >436 µM |
| CSC(=NCc1ccccc1)Nn1c(C)nc2ccccc2c1=O | MT-4 | - | IIIB | 50.32 µg/mL |
| Cc1cc(C)c2ccc(-c3cccc([N+](=O)[O-])c3)nc2c1 | MT-2 | - | NL4-3 | >50 µM |
| Cc1cc(C)c(Nc2nc(NC3CCN(Cc4ccc(Cl)c(Cl)c4)CC3)nc3nc[nH]c23)c(C)c1 | MT-4 | - | RES056 | >189 µM |
| Cc1cc(C#N)cc(C)c1Oc1nc(NC2CCC(NCc3ccc(O)cc3)CC2)nc2ccsc12 | MT-4 | - | RES056 | >20.1 µM |
| c1ccc(CO[C@@H]2[C@H](OCc3ccccc3)[C@@H]3OC[C@@H](O3)[C@H]2OCc2ccccc2)cc1 | - | - | IIIB | 2.14 µg/mL |
| O=C1CC2CCC1C1C(=O)N(CCCCN3CCN(c4ccccn4)CC3)C(=O)C21 | MT-4 | - | - | >100 µM |
| Cc1cc(/C=C/C#N)cc(C)c1Oc1nc(NC2CCN(Cc3cccc(Cl)c3)CC2)nc2ccsc12 | MT-4 | - | RES056 | 0.148 µM |
| Nc1nc2c(ncn2[C@H]2CC[C@](CCP(=O)(O)O)(C(F)(F)F)C2)c(=O)[nH]1 | MT-4 | - | - | 20.2 µM |

A second listing of 7 rows from above:

structure	cells	changes	strain or isolate	result
Cc1cc(/C=C/C#N)cc(C)c1Nc1ccnc(Nc2ccc(C#N)cc2)n1	MT-4	-	IIIB	0.0013 µM
Cc1cc(/C=C/C#N)cc(C)c1Oc1nc(NC2CCN(Cc3cccc(C(N)=O)c3)CC2)nc2ccsc12	MT-4	NNRTI-resistant (RT K103N)	IIIB	0.00297 µM
O=C1CC2CCC1C1C(=O)N(CCCN3CCN(c4ncccn4)CC3)C(=O)C21	MT-4	-	-	>100 µM
CCOCn1c(Sc2ccccc2)cc(=O)[nH]c1=O	MT-4	-	NL4-3	0.025 µg/mL
Cc1cc(C)c(Nc2nc(NC3CCN(Cc4ccc(Cl)c(Cl)c4)CC3)nc3nc[nH]c23)c(C)c1	MT-4	-	RES056	>189 µM
COc1ccccc1N1CCN(CCCN2C(=O)C3C4CCC(C(=O)C4)C3C2=O)CC1	MT-4	-	-	>100 µM
Cc1ccccc1N1CCN(CCCN2C(=O)C3C4CCC(C(=O)C4)C3C2=O)CC1	MT-4	-	-	>100 µM